Anti-infective test results gathered from many reports (values: NIAID ChemDB through PubChem).

Shared fields: target-level tests; organism: Hepatitis B virus; protein: DNA polymerase; endpoint: IC50

ICn: concentration for n% inhibition. Conditions beyond the fields shown may differ between rows. An empty or dashed field is not shown. Two numbers with a dash give a range or band.

SMILES	strain	result
COc1nc(Nc2ccc3cn[nH]c3c2)nc(-n2ccnc2)n1	-	0.1–1 µg/mL
Cc1cn([C@@H]2C[C@@H](N=[N+]=[N-])[C@H](CO)O2)c(=O)[nH]c1=O	-	>10 µM
CC(C)NC1=NC(NC(C)C)N(CN)C(Nc2ccc3cn[nH]c3c2)=N1	-	0.1–1 µg/mL
Nc1nc2c(ncn2[C@H]2C[C@H](F)[C@@H](COP(=O)(O)OP(=O)(O)OP(=O)(O)O)O2)c(=O)[nH]1	-	2.7 µM
Nc1nc2c(ncn2CC[C@H](CO)COP(=O)(O)OP(=O)(O)OP(=O)(O)O)c(=O)[nH]1	-	2.5 µM
Cc1ccc(C(=O)N2CCOCC2)c(Nc2ccc3cn[nH]c3c2)n1	-	<1 µg/mL
CNC1N=C(OC)N=C(Nc2ccc3cn[nH]c3c2)N1CN	-	0.1–1 µg/mL
Cc1ccc(C(=O)NCCN(C)C)c(Nc2ccc3cn[nH]c3c2)n1	-	~0.01 µg/mL
Nc1ccn([C@H]2CS[C@@H](COP(=O)(O)OP(=O)(O)OP(=O)(O)O)O2)c(=O)n1	Polymerase mutant V553I	0.503 µM
Cc1ccc(C(=O)NCCN2CCCCC2)c(Nc2ccc3cn[nH]c3c2)n1	-	<0.1 µg/mL
CCOC(=O)N1CCN(c2nc(Nc3ccc4[nH]ncc4c3)nc(OC)n2)CC1	-	>1 µg/mL
Nc1nc2c(ncn2COCCOP(=O)(O)OP(=O)(O)OP(=O)(O)O)c(=O)[nH]1	-	10 µM
Cc1ccc(C(=O)NN2CCN(C)CC2)c(Nc2ccc3cn[nH]c3c2)n1	-	<0.1 µg/mL
Nc1nc(=O)n([C@@H]2C=C[C@H](CO)O2)cc1F	-	0.0025 µM
Cc1ccc(C(=O)NC2CCC(O)CC2)c(Nc2ccc3[nH]ncc3c2)n1	-	~0.01 µg/mL
COc1nc(Nc2ccc3cn[nH]c3c2)nc(NC2CC2)n1	-	>1 µg/mL
Cc1ccc(C(=O)NCc2cccnc2)c(Nc2ccc3[nH]ncc3c2)n1	-	<1 µg/mL
COc1nc(NCCN(C)C)nc(Nc2ccc3[nH]ncc3c2)n1	-	>1 µg/mL

The last 2 rows once more:

{"SMILES": "Cc1ccc(C(=O)NCc2cccnc2)c(Nc2ccc3[nH]ncc3c2)n1", "result": "<1 µg/mL"}
{"SMILES": "COc1nc(NCCN(C)C)nc(Nc2ccc3[nH]ncc3c2)n1", "result": ">1 µg/mL"}